{"source": "PubChem BioAssay AID1224833 (University of Georgia, 2016)", "test": "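Human genes whose knock-down alters rotavirus replication in monkey cells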 (primary screen)", "cells": "monkey MA104 kidney cells", "knock-down reagent": "siRNA pool against human genes, 50 nM", "duration": "48 h knock-down before infection; read 24 h after infection", "challenge": "infection with rotavirus strain RV3 two days after transfection; infectious dose for this stage not given", "measured": "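z-score of rotavirus antigen signal per well, from a fluorescent immunoassay, relative to non-targeting control wells on the same plate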", "reading the numbers": "z-score vs non-targeting control: higher = more rotavirus replication than with non-targeting control", "active means": "In these data the active calls have z-score vs non-targeting control at about -1 or lower, or at about 1 or higher", "calls": "active = z-score beyond 1 either way; inactive = z-score within 1 of zero", "note": "Here is an unselected part of about 12,000 reagents. Of all reagents, about 5,600 (46%) were called active. 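Active calls cover z-scores past 1 in both directions, so they include lowered as well as raised rotavirus replication.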"}
{"target gene": "RPL30", "z-score vs non-targeting control": -0.802, "activity call": "inactive"}
{"target gene": "ADORA2A", "z-score vs non-targeting control": -0.576, "activity call": "inactive"}
{"target gene": "GSTM5", "z-score vs non-targeting control": -0.756, "activity call": "inactive"}
{"target gene": "ARID1A", "z-score vs non-targeting control": -1.06, "activity call": "active"}
{"target gene": "SDHD", "z-score vs non-targeting control": -1.22, "activity call": "active"}
{"target gene": "MRPS23", "z-score vs non-targeting control": -1.42, "activity call": "active"}
{"target gene": "ARAP1", "z-score vs non-targeting control": -1.45, "activity call": "active"}
{"target gene": "AFAP1L2", "z-score vs non-targeting control": -0.816, "activity call": "inactive"}
{"target gene": "SYNE2", "z-score vs non-targeting control": -0.675, "activity call": "inactive"}
{"target gene": "ITFG1", "z-score vs non-targeting control": 1.18, "activity call": "active"}
{"target gene": "REN", "z-score vs non-targeting control": 0.81, "activity call": "inactive"}
{"target gene": "DUX5", "z-score vs non-targeting control": -0.908, "activity call": "inactive"}
{"target gene": "CILP2", "z-score vs non-targeting control": 0.27, "activity call": "inactive"}
{"target gene": "ACOX2", "z-score vs non-targeting control": -2.6, "activity call": "active"}
{"target gene": "SSX2IP", "z-score vs non-targeting control": -0.0822, "activity call": "inactive"}
{"target gene": "TTC16", "z-score vs non-targeting control": 0.796, "activity call": "inactive"}
{"target gene": "CEACAM19", "z-score vs non-targeting control": -0.172, "activity call": "inactive"}
{"target gene": "SERINC4", "z-score vs non-targeting control": 0.238, "activity call": "inactive"}
{"target gene": "HAMP", "z-score vs non-targeting control": 0.795, "activity call": "inactive"}
{"target gene": "UTP11", "z-score vs non-targeting control": 0.322, "activity call": "inactive"}
{"target gene": "S100A12", "z-score vs non-targeting control": -0.469, "activity call": "inactive"}
{"target gene": "COQ10B", "z-score vs non-targeting control": 0.918, "activity call": "inactive"}
{"target gene": "HYPK", "z-score vs non-targeting control": -0.835, "activity call": "inactive"}
{"target gene": "INTS1", "z-score vs non-targeting control": -1.15, "activity call": "active"}
{"target gene": "MTCL2", "z-score vs non-targeting control": 0.515, "activity call": "inactive"}
{"target gene": "CNRIP1", "z-score vs non-targeting control": -0.28, "activity call": "inactive"}
{"target gene": "CARD8", "z-score vs non-targeting control": 0.448, "activity call": "inactive"}
{"target gene": "HAP1", "z-score vs non-targeting control": -0.0052, "activity call": "inactive"}
{"target gene": "SH3GL3", "z-score vs non-targeting control": -1.57, "activity call": "active"}
{"target gene": "ADAM2", "z-score vs non-targeting control": -1.35, "activity call": "active"}
{"target gene": "UNC119", "z-score vs non-targeting control": 0.889, "activity call": "inactive"}
{"target gene": "PAX9", "z-score vs non-targeting control": 0.831, "activity call": "inactive"}

Entries listed so far called active (9):
{"target gene": "ARID1A", "z-score vs non-targeting control": -1.06, "activity call": "active"}
{"target gene": "SDHD", "z-score vs non-targeting control": -1.22, "activity call": "active"}
{"target gene": "MRPS23", "z-score vs non-targeting control": -1.42, "activity call": "active"}
{"target gene": "ARAP1", "z-score vs non-targeting control": -1.45, "activity call": "active"}
{"target gene": "ITFG1", "z-score vs non-targeting control": 1.18, "activity call": "active"}
{"target gene": "ACOX2", "z-score vs non-targeting control": -2.6, "activity call": "active"}
{"target gene": "INTS1", "z-score vs non-targeting control": -1.15, "activity call": "active"}
{"target gene": "SH3GL3", "z-score vs non-targeting control": -1.57, "activity call": "active"}
{"target gene": "ADAM2", "z-score vs non-targeting control": -1.35, "activity call": "active"}
